Results of unrelated studies side by side (data: NIAID ChemDB).

All rows: growth or infection tests; organism: Hepatitis C virus; cells: Huh 5-2; endpoint: EC50

ECn: concentration that inhibits the pathogen or its effect by n%.

compound	strain	method	setting	value
Fc1cccc(Cn2ccc3nc(-c4ccccc4)nc-3c2)c1		replicon		1 µg/mL
O=C(Nc1ccc(Cl)cc1)c1cc(-n2cccc2)n(-c2ccc(Cl)cc2)n1	Con1 (gt 1b)	luciferase / replicon		35.4 µM
O=c1cc(OCc2cccc([N+](=O)[O-])c2)oc2cc(-c3ccccc3)c(OCc3cccc([N+](=O)[O-])c3)c(O)c12		luciferase		>100 µM
COc1cc(OC)c2c(=O)cc(-c3ccc(OP(=O)(O)OP(=O)(O)O)c(N)c3)n(C)c2c1		replicon		>50 µg/mL
COc1cccc(-c2nc3ccn(Cc4ccc(Br)cc4)cc-3n2)c1		replicon		0.13 µg/mL
Cc1c(C(=O)Nc2ccc(Cl)cc2)nn(-c2ccc(Cl)cc2)c1-n1cccc1	Con1 (gt 1b)	luciferase / replicon		13.6 µM
COc1ccc(CC#Cc2nc(C(N)=O)nn2COCCO)cc1		luciferase / reporter gene		>50 µg/mL
COC(=O)/C=C1\S/C(=N/N=C/c2cccc(Br)c2)NC1=O	1b Con1 (replicon)	luciferase / luminescence		2.95 µM
O=C(Nc1ccccc1)c1cc(-n2cccc2)n(-c2ccc(Cl)cc2)n1	Con1 (gt 1b)	luciferase / replicon		26.9 µM
COC(=O)/C=C1\S/C(=N/N=C/c2ccc(OC)cc2)NC1=O	1b Con1 (replicon)	luciferase / luminescence		14.7 µM
N#Cc1c(C(=O)Nc2ccccc2)nn(-c2ccc(Cl)cc2)c1-n1cccc1	Con1 (gt 1b)	luciferase / replicon		26.2 µM
CCCCCc1ccc(CC#Cc2nc(C(N)=O)nn2COCCO)cc1		luciferase / reporter gene		22 µg/mL
N#Cc1cccc(S(=O)(=O)N(Cc2c(Cl)cccc2Cl)c2cccc(C(=O)NC3CCC3)c2)c1	1b	PCR		28 µM
O=c1cc(OCc2cccc(Br)c2)oc2cc(-c3ccccc3)c(OCc3cccc(Br)c3)c(O)c12		luciferase		52 µM
Brc1ccc(Cn2ccc3nc(-c4ccccc4)nc-3c2)cc1	genotype 1b	cytopathic effect		>50 µM
COC(=O)/C=C1\S/C(=N/N=C/c2cccc(OC)c2)NC1=O	1b Con1 (replicon)	luciferase / luminescence		8.28 µM
[N-]=[N+]=NC[C@@]1(O)[C@@H](CO)O[C@@H](n2cnc3cncnc32)[C@@H]1O	genotype 1	luciferase		>100 µM
N#Cc1c(C(=O)Nc2ccccc2)nn(-c2ccccc2)c1-n1cccc1	Con1 (gt 1b)	luciferase / replicon		39.6 µM
COC(=O)N[C@H](C(=O)N1C[C@@H](C)C[C@H]1c1ncc(-c2ccc(-c3ccc(-c4cc5[nH]c([C@@H]6C[C@H](C)CN6C(=O)[C@@H](NC(=O)OC)C(C)C)nc5s4)cc3C)cc2)[nH]1)C(C)C		luciferase	genotype 1b	0.000008 µM
O=C1N/C(=N\S(=O)(=O)c2ccc(Cl)cc2)S/C1=C\c1ccccc1Cl	1b	luciferase		48.9 µM
O=C(Nc1ccccc1)c1cc(-n2cccc2)n(-c2ccccc2)n1	Con1 (gt 1b)	luciferase / replicon		31.7 µM
O=c1cc(OCc2cccc(Cl)c2)oc2cc(-c3ccccc3)c(OCc3cccc(Cl)c3)c(O)c12		luciferase		13 µM
Brc1ccc(Cn2ccc3nc(-c4ccccn4)nc-3c2)cc1		replicon		0.2 µg/mL
NC(=O)c1nc(C#CCc2ccccc2)n(COCCO)n1		luciferase / reporter gene		18 µg/mL
N#Cc1c(C(=O)Nc2ccc(Cl)c(Cl)c2)nn(-c2ccc(Cl)cc2)c1-n1cccc1	Con1 (gt 1b)	luciferase / replicon		50.5 µM
OC[C@H]1O[C@@H](n2cnc3cncnc32)[C@H](O)[C@@]1(O)CF	genotype 1	luciferase		>100 µM
NC(=O)c1nc(C#CCC2(O)CCCC2)n(COCCO)n1		luciferase / reporter gene		>50 µg/mL
O=c1cc(OCc2cccc(C(F)(F)F)c2)oc2cc(-c3ccccc3)c(OCc3cccc(C(F)(F)F)c3)c(O)c12		luciferase		>100 µM
COC(=O)/C=C1\S/C(=N/N=C/c2ccc(N(C)C)cc2)NC1=O	1b Con1 (replicon)	luciferase / luminescence		14.4 µM
COc1ccc(/C=C2\S/C(=N/S(=O)(=O)c3ccc(C)cc3)NC2=O)cc1	1b	luciferase		>68.04 µM
O=c1ccoc2cc(-c3ccccc3)c(OCc3cccc(Cl)c3)c(O)c12	genotype 1	luciferase		22 µM
O=C1N/C(=N\S(=O)(=O)c2ccc(Cl)cc2)S/C1=C\c1cccnc1	1b	luciferase		64.11 µM
O=C(Nc1ccccc1)c1cnn(-c2ccc(Cl)cc2)c1-n1cccc1	Con1 (gt 1b)	luciferase / replicon		>241.2 µM
O=c1ccoc2cc(-c3ccccc3)c(OCc3cccc([N+](=O)[O-])c3)c(O)c12	genotype 1	luciferase		14 µM
Cc1ccc(S(=O)(=O)/N=C2\NC(=O)/C(=C/c3ccccc3Cl)S2)cc1	1b	luciferase		44.02 µM
Cc1c(C(=O)Nc2ccccc2)nn(-c2ccc(Cl)cc2)c1-n1cccc1	Con1 (gt 1b)	luciferase / replicon		16.7 µM

Rows are shuffled and stem from different studies. Blank or dashed fields: not listed here.